Measured values as given in PMC10310857 (Nature Communications, 2023).

Target: Pst_13661 (Puccinia striiformis f. sp. tritici, UniProt A0A0L0V0Y3, T32S)
Assay: Inhibitor screening and Ki determination, fluorescamine deacetylase assay with (GlcNAc)3
Format: biochemical
Conditions: read-out: Pst_13661 Ki; Dixon plots, (GlcNAc)3 0.5, 0.2 and 0.1 mM

Structure (SMILES): O=C(NO)c1ccccc1 [Compound 1, benzohydroxamic acid]
- Ki: 9.83 µM
